In PMC4937376:
For part of these data: The exact form of at least one protein or probe is not confirmed. For part of these data: At least one result comes from cells or an extract, where the contact may be indirect.

What was measured:
[1] = molecular target: 6His-CpsR (Streptococcus pneumoniae D39) (UniProt A0A0H2ZMA3); experiment: EMSA; details: dose dependent, shift above 1.0 ug CpsR, competed by 400-fold unlabeled cpsp, poly(dI-dC); EMSA: 20 ul, LightShift kit buffer (composition not given) with 50 ng/ul poly(dI-dC), 20 min room temperature, 6% gel; recombinant protein; residues 1-247; protein details: 6His; label: 5'-biotin
[2] = molecular target: CcpA (Streptococcus pneumoniae D39) (UniProt A0A0H2ZQ65); experiment: pull-down (DNA affinity, MS); details: crude D39 extract, candidate, direct binding not confirmed; protein in an extract; label: 5'-biotin
[3] = molecular target: CpsR (native) (Streptococcus pneumoniae D39) (UniProt A0A0H2ZMA3); experiment: pull-down (DNA affinity, MS); details: crude D39 extract, eluted 0.3-0.5 M NaCl; protein in an extract; residues 1-247; label: 5'-biotin
[4] = molecular target: DNA binding protein HU (Streptococcus pneumoniae D39) (UniProt A0A0H2ZMW4); experiment: pull-down (DNA affinity, MS); details: crude D39 extract, candidate, direct binding not confirmed; protein in an extract; label: 5'-biotin
[5] = molecular target: DNA gyrase subunit A (Streptococcus pneumoniae D39) (UniProt Q8DPM2); experiment: pull-down (DNA affinity, MS); details: crude D39 extract, candidate, direct binding not confirmed; protein in an extract; label: 5'-biotin
[6] = molecular target: SPD_0379 (MarR family regulator) (Streptococcus pneumoniae D39) (UniProt A0A0H2ZNZ9); experiment: pull-down (DNA affinity, MS); details: crude D39 extract, candidate, direct binding not confirmed; protein in an extract; label: 5'-biotin

Measured: binding result

TACACATCTGCTTCTAAAATATTGTTAGAAAACGATTTGACTGTCCTGATCAATTTGTCATGTTCTTATTTCATTTTACTATATTTTTGGTTCGCGGGAAGTCTACTAAGATACTTAAAGATGCAGATAGTGAAAAAAGGTGTAGACATTACCGTAAAAAAGTGATATAATCGTAAGATGTTCAATGTATAGGTGTTAATCATGAGTAGACGTTTTAA (double strand) [cpsp 218-bp probe]
binds: all assays above
